# Results of single-concentration screens

Measurements from “University of Dundee, Small-Polar-MMV Screening Library” (2021), ChEMBL document CHEMBL3988442.

Mtb glucose medium: 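Growth of Mycobacterium tuberculosis over 3 days (7H9 medium with glucose and tyloxapol); the read-out is not stated. Compounds at 500 µM. Higher reads as more growth inhibition (inferred: compounds with an IC50 in retests scored well above the rest). About 18,000 compounds were tested under these conditions; 7.9% (about 1,400) showed 50% or more at least once.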
Mtb cholesterol medium: 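Growth of Mycobacterium tuberculosis over 4 days (cholesterol / DPPC medium with tyloxapol); the read-out is not stated. Compounds at 500 µM. The record gives no direction; compounds that gave an IC50 in retests scored well above the rest, so higher reads as more growth inhibition. About 18,000 compounds were tested under these conditions; 5% (about 900) showed 50% or more at least once.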

Each number is a percent effect as filed.
The controls that fix the scale are not given in the record; negative values are as filed.
This is part of a subset picked to be rich in strong results.
A dash means the value is not listed here; it may have been measured.

| # | structure | Mtb glucose medium | Mtb cholesterol medium |
|---|---|---|---|
| 1 | `CC(NC(=O)c1ccco1)c1ccccn1` (stereo not given) | 41.54 | - |
| 2 | `CC(C)(C)c1ccc2c(c1)C(N)C(=O)N2` (stereo not given) | 104 | 72.52 |
| 3 | `CC(N)c1ccc(NC(=O)c2ccncc2)cc1` (stereo not given) | 23.33 | - |
| 4 | `NC(=O)N1CCC(NCc2sccc2Cl)CC1` | 3.447 | - |
| 5 | `COCCSCc1cnn(-c2ccccc2)n1` | 43.15 | - |
| 6 | `CCOC(=O)CN(C)C(=O)c1ccc(=O)n(C)n1` | -6.889 | - |
| 7 | `Cc1c[nH]c(CN(C)Cc2ccncc2Cl)n1` | -4.979 | - |
| 8 | `C[C@@H]1CN(C(=O)c2ccc(N)nc2)C[C@@]1(O)C1CC1` | 13.96 | - |
| 9 | `CC(C)C(N)CCN(C)C(=O)CC(F)(F)F` (stereo not given) | -4.46 | - |
| 10 | `Cc1c(C(=O)NCc2ccnc(N(C)C)c2)cnn1C` | - | 2.441 |
| 11 | `Cn1cnnc1CCNC(=O)Cc1ccsc1` | 1.056 | - |
| 12 | `O=C(CSc1cnn[nH]1)Nc1ccc(F)cc1F` | 29.45 | 4.122 |
| 13 | `CC(=O)N1CCC(C(=O)c2ccc(C)cc2)CC1` | 57.76 | - |
| 14 | `CC(C#N)CNC(=O)OC(C)(C)C` (stereo not given) | -6.106 | - |
| 15 | `NCCNC(=O)c1ccc(-c2ccc(Cl)cc2)s1` | 96.41 | 99.42 |
| 16 | `CCN1C(=O)C[C@H](CN)[C@H]1c1cccnc1` | - | -0.171 |
| 17 | `CC(C)(CO)NCc1ccc2c(c1)OCO2` | -2.988 | - |
| 18 | `CC(CN(CCO)Cc1nccn1C)N1CCCC1` (stereo not given) | - | -38.89 |
| 19 | `O=C(CCN1CCC(O)C1)N1CCOCC1` (stereo not given) | - | -11.6 |
| 20 | `O=C(NCC1(CO)COC1)C1=Cc2ccccc2OC1` | -4.931 | -12.29 |
| 21 | `CNC(=O)C1CCN(S(C)(=O)=O)c2cc(C)ccc2O1` (stereo not given) | 10.8 | - |
| 22 | `COCCCOc1ccc2c(c1)OCCO2` | 63.15 | 79.72 |
| 23 | `Cc1cccc(OCC(=O)NC2CCCNC2)c1` (stereo not given) | 32.84 | 25.87 |
| 24 | `CC(Cc1ccccc1F)C(=O)N1CC[C@H](O)C1` (stereo not given in full) | - | 2.917 |
| 25 | `OC[C@@H]1CN(C2CCC2)C[C@H]1c1nc(C2CC2)no1` | - | 41.76 |
| 26 | `CNCC1(CO)CCCC1` | -11.64 | - |
| 27 | `CC(C)(C)OC(=O)Nc1ccc(NC(=O)C2CC2)cn1` | -1.325 | - |
| 28 | `Cc1ccc(NC(C)C(=O)N2CCNC2=O)cc1F` (stereo not given) | - | 32.29 |
| 29 | `CN1CCC(C(=O)NCCc2cccc(Cl)c2)CC1=O` (stereo not given) | 23.44 | -0.3935 |
| 30 | `CCN1CCN(Cc2nc(C3CC3)no2)CC1` | 7.867 | 0.2914 |
| 31 | `CN(Cc1cccn1C)C(=O)c1ccccc1F` | 58.97 | - |
| 32 | `CCNC(=O)[C@@H](NC(=O)c1ccccc1)C(C)C` | 7.429 | - |
| 33 | `Cc1csc(CNc2ccc(OCCO)nc2)n1` | - | -24.78 |
| 34 | `CCC1(NC(=O)c2coc(S(=O)(=O)N(C)C)c2)CCC1` | 67.83 | - |
| 35 | `CN1CC2(CCCN(CCn3cc(Cl)cn3)C2)OC1=O` (stereo not given) | - | 2.696 |
| 36 | `CC(O)CN1CCN(C(=O)CN(C)S(C)(=O)=O)CC1` (stereo not given) | 2.363 | - |
| 37 | `O=S1(=O)CCNCC12CCCCC2` | -5.573 | - |
| 38 | `O=C(Nc1ncccc1O)c1ccoc1` | -4.226 | -6.394 |
| 39 | `O=C(c1cccc(-n2cccn2)n1)N1CCCC1` | 61.63 | 59.17 |
| 40 | `COc1cc(C(=O)N2C[C@H](C(C)C)[C@@H](N)C2)ccc1C` | 43.89 | - |
| 41 | `O=C(CCc1ncc[nH]1)Nc1nc2ccccc2[nH]1` | -12.63 | - |
| 42 | `CC(C)Cc1cc(C(=O)N2CC[C@H](CO)[C@H](O)C2)on1` | 9.002 | - |
| 43 | `CCc1nccn1CCCNC(=O)CSC` | 4.552 | - |
| 44 | `O[C@H]1C[C@@H](c2cc(NCCc3cn[nH]c3)ncn2)C1` | 20.1 | - |
| 45 | `O=C(OCc1cc(=O)n2ccsc2n1)c1ccccc1` | -20.65 | - |
| 46 | `O[C@@H]1CCN(CC=Cc2ccc(F)cc2)C1` | -7.441 | 19 |
| 47 | `COCCN(C(=O)c1cccc(C)c1C)C(C)C(N)=O` (stereo not given) | 1.285 | - |
| 48 | `CNC(=O)C1CCN(C(=O)Nc2ccc(C)c(Cl)c2)C1` (stereo not given) | - | 7.716 |
| 49 | `CC(CS(C)(=O)=O)N(C)C(=O)Cc1ccc(Cl)c(Cl)c1` (stereo not given) | 41.78 | 17.69 |
| 50 | `Cc1occc1C(=O)NCC(CO)Cc1cccs1` (stereo not given) | 69.36 | 55.31 |
| 51 | `CSCCN1CCN(C(=O)c2cnc[nH]2)CC1` | - | -9.411 |
| 52 | `O=C(CN1CCN(C2CC2)CC1)NCc1ccco1` | 12.03 | - |
| 53 | `NCCc1ccc2[nH]ccc2c1` | 13.01 | 31.43 |
| 54 | `CC(C)(C)NC(=O)c1ccc(CN2CCCC2)cc1` | 4.095 | - |
| 55 | `C[S+]([O-])CCNC(=O)NC1CCCCC1` (stereo not given) | - | 11.67 |
| 56 | `NC(=O)CN(CCc1ccncc1)C1CCCC1` | - | 10.31 |
| 57 | `CC(=O)NC(C)C(=O)Nc1ccc2c(c1)OCCO2` (stereo not given) | - | 1.362 |
| 58 | `CN(Cc1ccnn1C)S(=O)(=O)c1cccs1` | 32.56 | 30.3 |
| 59 | `COCc1nn(CC(O)c2cccc(F)c2)c(=O)o1` (stereo not given) | 9.227 | -8.111 |
| 60 | `COCCc1noc(C2CNC2)n1` | 99.82 | 92.28 |
| 61 | `CC(=O)c1ccnc(N2CCC(NS(C)(=O)=O)CC2)c1` | -17.52 | - |
| 62 | `Cc1cc(C)n(CC(=O)N(C)C2CCCC2)n1` | 12.17 | - |
| 63 | `CNC(=O)CN(C)C(=O)c1csc(Br)c1` | 0.9059 | - |
| 64 | `CC(C)c1[nH][nH]c(=O)c1CCN` | 31.67 | - |
| 65 | `COCC1CCN(C(=O)c2cc(C3CC3)on2)CC1` | 59.73 | 61.28 |
| 66 | `COc1c(CNCCCN(C)S(C)(=O)=O)c(C)nn1C` | 7.096 | - |
| 67 | `NCCN1CCN(c2cccc(C(F)(F)F)c2)CC1` | 80.16 | 86.2 |
| 68 | `Nc1nnc(CS(=O)(=O)Cc2ccccc2)s1` | -6.357 | - |
| 69 | `CN(Cc1cc(Br)cs1)C(=O)c1ccn(C)c(=O)c1` | - | 3.302 |
| 70 | `CNC(=O)c1cccc(-c2nc(C(C)(C)OC)no2)c1` | 2.79 | - |
| 71 | `COCCN(Cc1cccnc1)C(=O)c1csc(C)n1` | 2.229 | - |
| 72 | `Cc1noc(C2CCCN(Cc3ccccn3)C2)n1` (stereo not given) | 11.73 | - |
| 73 | `Cc1noc(COc2cccc(C#N)c2)n1` | - | 30.87 |
| 74 | `COCCN1CCC(CNC(=O)c2cn[nH]c2)C1` (stereo not given) | -4.629 | -23.79 |
| 75 | `CC(C)(C)OC(=O)N1CCCOC(CN)C1` (stereo not given) | 29.3 | - |
| 76 | `Clc1ccc(OC2CCCNC2)nc1` (stereo not given) | 31.31 | - |
| 77 | `COCc1cccc(C(=O)NCC[C@@H]2CCCN2)c1` | 18.55 | - |
| 78 | `NCc1cccc(F)c1OC(F)F` | - | -9.776 |
| 79 | `Cn1cccc1C(=O)Nc1ccc(C(N)=O)cc1` | - | 19.78 |
| 80 | `CCN(Cc1ccoc1)C(=O)[C@@H](N)CC(C)C` | 34.94 | - |
| 81 | `CS(=O)(=O)c1cccc(Cl)c1C#N` | - | -27.61 |

6 of the entries, repeated:

* CCOC(=O)CN(C)C(=O)c1ccc(=O)n(C)n1 : Mtb glucose medium: -6.889%
* O=C(CN1CCN(C2CC2)CC1)NCc1ccco1 : Mtb glucose medium: 12.03%
* C[C@@H]1CN(C(=O)c2ccc(N)nc2)C[C@@]1(O)C1CC1 : Mtb glucose medium: 13.96%
* CC(C)(C)NC(=O)c1ccc(CN2CCCC2)cc1 : Mtb glucose medium: 4.095%
* C[S+]([O-])CCNC(=O)NC1CCCCC1 (stereo not given) : Mtb cholesterol medium: 11.67%
* CNC(=O)CN(C)C(=O)c1csc(Br)c1 : Mtb glucose medium: 0.9059%